# Measurements taken from paper PMC10633841 (American Journal of Respiratory Cell and Molecular Biology, 2023).
# Biological target: His-tagged full-length SARS-CoV-2 nucleocapsid protein (N-protein) (SARS-CoV-2)
# Test: SPR
binder,measurement,value
Recombinant RAGE protein (receptor for advanced glycation endproducts) (receptor) AQNITARIGEPLVLKCKGAPKKPPQRLEWKLNTGRTEAWKVLSPQGGGPWDSVARVLPNGSLFLPAVGIQDEGIFRCQAMNRNGKETKSNYRVRVYQIPGKPEIVDSASELTAGVPNKVGTCVSEGSYPAGTLSWHLDGKPLVPNEKGVSVKEQTRRHPETGLFTLQSELMVTPARGGDPRPTFSCSFSPGLPRHRALRTAPIQPRVWEPVPLEEVQLVVEPEGGAVAPGGTVTLTCEVPAQPSPQIHWMKDGVPLPLPPSPVLILPEIGPQDQGTYSCVATHSSHGPQESRAVSISIIEPGEEGPTAGSVGGSGLGTLA,Kd,34.5 nM
